Human monoclonal antibodies against the spike receptor-binding domain (heavy:light variable regions). IC50 against pseudoviruses bearing the spike of naturally observed variants; lower = stronger; >10 µg/ml means not reached at the top dose. No active / inactive call. The stated detection limit is 0.0005 µg/ml; values near or below 0.001 µg/ml lie at the floor of the assay.
B1: BD56-833 (protein)
chain 1: QVQLVESGGGVVQPGRSLRLSCAASGFTFSYYGMHWVRQAPGKGLEWVAVISNHGSSEYYADSVKGRFTISRDNSKNTLYLQMNSLRAEDTAVYYCARDGEDIVVVPAAPPDYYYYYGMDVWGQGTTVTVSS
chain 2: SSELTQDPAVSVALGQTVRITCQGDSLRSYYASWYQQKPGQAPVLVIYGKNNRPSGIPDRFSGSSSGNTASLTITGAQAEDEADYYCNSRDSSGNPHVVFGGGTKLTVL
B2: BD56-843 (protein)
chain 1: EVQLVQSGAEVKKPGESLKISCKGSGYSFTNYWIGWVRQMPGKGLEWMGIISPGDSDTRYSPSFQGQVTISADKSISTAHLQWSSLKASDTAMYYCARVGVGTLEPYFDYWGQGTLVTVSS
chain 2: DIQMTQSPSSLSASVGDRVTITCRASQTISSFLNWYQQKPGKAPKLLIYAASSLQSGVPSRFSGSGSGTDFTLTITSLQPEDFATYYCQQTYSIWTFGLGTKVEIK
B3: BD56-844 (protein)
chain 1: QITLKESGPTLVKPTQTLTLTCSFSGFSLSTSGVGVGWIRQPPGKALEWLALIYWDDDKRYSPSLKSRLTITKDTSKNQVVLTMTNMDPVDTATYYCAHSPDGSSEYFQHWGQGTLVTVSS
chain 2: SYELTQPPSVSVSPGQTARITCSGDALPKQYAYWYQQKPGQAPVVVIYKDSERPSGIPERFSGSSSGTTVTLTISGVQAEDEADYYCQSADSSGTPVVFGGGTKLTVL
B4: BD56-847 (protein)
chain 1: EVQLVESGGGLVKPGGSLRLSCAASGFTFSRYYMNWVRQAPGKGLEWVSSITSSSSYIYYADSVKGRFTISRDNAENSLYLQMNSLRAEDTAVYYCASTPGDSSSWYSDYWGQGTLVTVSS
chain 2: SYELTQPPSVSVSPGQTARITCSGDALPNQYAYWYQQKPGQAPVMVIYKDSERPSGIPERFSGSSSGTTVTLTISGVQAEDEADYYCQSADNSGTPWVFGGGTKLTVL
B5: BD56-860 (protein)
chain 1: QVQLQESGPGLVKPSETLSLTCTVSGDSISGYYWSWIRQPPGKGLEWIGYIYYSGNTNYNPSLKSRVTISVDTSDNRLSLKLSSVTAADTAVYYCARGDNYGDYWPPDSWGQGTLVSVSS
chain 2: DIVMTQSPDSLAVSLGERATINCKSSQSVLYSSNNQNYLAWYQQKPGQSPKLLISWASTRESGVPDRFSGSGSGTDFTLTISSLQAEDVAVYYCQQYYSPPLTFGGGTKVEIK
B6: BD56-272 (protein)
chain 1: EVQLVQSGAEVRKPGESLKISCKDSGYSFSNYWIGWVRQMPGKGLEWMGIIYPGDSDTRYSPSFRGQVTISADKSISTAYLQWSSLKASDTAMYFCATSGVVVAQFGFDYWGQGTLVTVSS
chain 2: NFMLTQPHSVSESPGKTVTISCTGSSGSIASNYVQWYQQRPGSAPTTVIYEDNQRPSGVPDRFSGSIDSSSNSASLTISGLKTEDEADYYCQSFDSSYVVFGGGTRLTVL
B7: BD56-883 (protein)
chain 1: QVQLVQSGAEVKKPGSSVKVSCKASGGTFSSYGISWVRQAPRQGLEWMGGIIPIFGTPNHAQKFQGRVTITADESTSTAYMELSSLRSEDTAVYYCARVEQLPPHWHFDLWGRGTLVTVSS
chain 2: QSVLTQPPSVSEAPRQRVTISCSGSSSNIGNNAVNWYQQLPGKAPKLLIYDDDLLSSGVSDRFSGSKSGTSASLAISGLQSEDEADYYCAAWDDSLNGVVFGGGTTLTVL
B8: BD56-888 (protein)
chain 1: QVTLRESGPALVKPTQTLTLTCTFSGFSLSTSGMCVSWIRQPPGKALEWLALIDWDDDKYYSTSLKTRLTISKDTSKNQVVLTMTNMDPVDTATYYCARVSEEGSSSSYYFDYWGQGTLVTVSS
chain 2: SYELTQPPSVSVSPGQTARITCSGDALPMQFAYWYQQKPGQAPVVVIYKDSERPSGIPERFSGSSSGTTVTLTISGVQAEDEADYYCQSADSSGSYPVVFGGGTKLTVL
B9: BD56-889 (protein)
chain 1: QVQLQESGPGLVKPSETLSLTCTVSSDSISSYYWSWIRQPPGKGLEWIGYIYNSGSINYNPSLKSRVTISEDTSKNQFSLKLSSVTAADTAVYYCVRGGSYGDYFSYWGQGTLVTVSS
chain 2: DIVMTQSPDSLAVSLGERATINCKSSQSVLYSSNNENYLAWYQQKPGQPPQLLIYWASTRESGVPDRFSGSGSGTDFTLTISSLQAEDVAVYYCQQYYSPPLTFGGGTKVEIK
B10: BD55-6390 (protein)
chain 1: QVQLVQSGAEVKKPGSSVKVSCKASGGTFSSSAISWVRQAPGQGLEWMGRIIPMFGIVSYEQKFQGRVTITADKSTSTAYMELSSLRSEDTGVYYCARDFVDMHSGYGQGYFDYWGQGTLVTVSS
chain 2: DIQMTQSPSTLSASVGDRVTITCRASQNISSWLAWYQQKPGKAPKLLIYKASSLESGVPSRFSGSGSGTEFTLTIISLQPDDFATYYCQHYKSYPFTFGPGTKVDIK

The binders below were run against SARS-CoV-2 Omicron BA.1 spike pseudovirus (assay: pseudovirus neutralization IC50; higher = weaker neutralization).
Description: (§1)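 Single-round VSV luciferase pseudovirus mixed with antibody dilutions for 1 h and put on Huh-7 cells for about a day; IC50 from the dose curve.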

Point of comparison: B8, “pseudovirus neutralization IC50” value 0.0225 µg/mL. Against it:
- B1 — 11-fold lower, 0.00212 µg/mL
- B2 — 4.4-fold lower, 0.00507 µg/mL
- B3 — 3.6-fold lower, 0.00626 µg/mL
- B4 — 22-fold lower, 0.00103 µg/mL
- B5 — 42-fold lower, 0.00054 µg/mL
- B6 — 1.7-fold lower, 0.0132 µg/mL
- B7 — 39-fold lower, 0.000582 µg/mL
- B9 — 9.4-fold lower, 0.00239 µg/mL

Each binder was assayed against SARS-CoV-2 Omicron BA.2 spike pseudovirus in the same assay as above.
Description: as §1

Point of comparison: B8, “pseudovirus neutralization IC50” value 2.92 µg/mL. Against it:
- B1 — 1300-fold lower, 0.00229 µg/mL
- B2 — 52-fold lower, 0.0566 µg/mL
- B3 — 61-fold lower, 0.0475 µg/mL
- B4 — 5900-fold lower, 0.000498 µg/mL
- B5 — higher, > 10 µg/mL
- B6 — 16-fold lower, 0.187 µg/mL
- B7 — 5300-fold lower, 0.000547 µg/mL
- B9 — 11-fold lower, 0.255 µg/mL

What follows are binders tested against SARS-CoV-2 Omicron BA.2.75 spike pseudovirus in the same assay as above.
Description: as §1

Point of comparison: B9, “pseudovirus neutralization IC50” value 0.352 µg/mL. Against it:
- B1 — within 1.5-fold, 0.448 µg/mL
- B2 — 7.7-fold lower, 0.0457 µg/mL
- B3 — 6-fold lower, 0.0585 µg/mL
- B4 — 140-fold lower, 0.00244 µg/mL
- B5 — higher, > 10 µg/mL
- B6 — 120-fold lower, 0.003 µg/mL
- B7 — 130-fold lower, 0.00273 µg/mL
- B8 — 5-fold lower, 0.0706 µg/mL

The binders below were run against SARS-CoV-2 Omicron BA.2.75.2 spike pseudovirus in the same assay as above.
Description: as §1

Point of comparison: B2, “pseudovirus neutralization IC50” value 0.0904 µg/mL. Against it:
- B1 — 11-fold higher, 0.955 µg/mL
- B3 — 5.3-fold higher, 0.483 µg/mL
- B4 — 30-fold lower, 0.00302 µg/mL
- B5 — higher, > 10 µg/mL
- B6 — 41-fold higher, 3.74 µg/mL
- B7 — 2.8-fold lower, 0.0318 µg/mL
- B8 — within 1.5-fold, 0.117 µg/mL
- B9 — 7.2-fold higher, 0.65 µg/mL

Each binder was assayed against SARS-CoV-2 Omicron BA.5 spike pseudovirus in the same assay as above.
Description: as §1

Point of comparison: B3, “pseudovirus neutralization IC50” value 0.0579 µg/mL. Against it:
- B1 — higher, > 10 µg/mL
- B2 — within 1.5-fold, 0.0793 µg/mL
- B4 — 47-fold lower, 0.00122 µg/mL
- B5 — higher, > 10 µg/mL
- B6 — 2.8-fold higher, 0.162 µg/mL
- B7 — 20-fold higher, 1.16 µg/mL
- B8 — 68-fold higher, 3.92 µg/mL
- B9 — 6.4-fold higher, 0.369 µg/mL

Each binder was assayed against SARS-CoV-2 Omicron BM.1.1.1 spike pseudovirus in the same assay as above.
Description: as §1

Point of comparison: B4, “pseudovirus neutralization IC50” value 0.00565 µg/mL. Against it:
- B1 — higher, > 10 µg/mL
- B2 — 22-fold higher, 0.127 µg/mL
- B3 — 75-fold higher, 0.421 µg/mL
- B5 — higher, > 10 µg/mL
- B6 — higher, > 10 µg/mL
- B7 — higher, > 10 µg/mL
- B8 — 24-fold higher, 0.136 µg/mL
- B9 — higher, > 10 µg/mL

What follows are binders tested against SARS-CoV-2 Omicron BQ.1.1 spike pseudovirus in the same assay as above.
Description: as §1

Point of comparison: B2, “pseudovirus neutralization IC50” value 1.99 µg/mL. Against it:
- B1 — higher, > 10 µg/mL
- B3 — higher, > 10 µg/mL
- B4 — 1000-fold lower, 0.00197 µg/mL
- B5 — higher, > 10 µg/mL
- B6 — higher, > 10 µg/mL
- B7 — higher, > 10 µg/mL
- B8 — higher, > 10 µg/mL
- B9 — higher, > 10 µg/mL
- B10 — higher, > 10 µg/mL

These binders were tested against SARS-CoV-2 Omicron BR.2 spike pseudovirus in the same assay as above.
Description: as §1

Point of comparison: B7, “pseudovirus neutralization IC50” value 0.25 µg/mL. Against it:
- B1 — higher, > 10 µg/mL
- B2 — 2.9-fold lower, 0.0868 µg/mL
- B3 — 2.4-fold higher, 0.599 µg/mL
- B4 — 40-fold lower, 0.00631 µg/mL
- B5 — higher, > 10 µg/mL
- B6 — higher, > 10 µg/mL
- B8 — 2-fold lower, 0.125 µg/mL
- B9 — higher, > 10 µg/mL

Each binder was assayed against SARS-CoV-2 Omicron CA.1 spike pseudovirus in the same assay as above.
Description: as §1

Point of comparison: B2, “pseudovirus neutralization IC50” value 0.092 µg/mL. Against it:
- B1 — higher, > 10 µg/mL
- B3 — 3.3-fold higher, 0.306 µg/mL
- B4 — 18-fold lower, 0.0052 µg/mL
- B5 — higher, > 10 µg/mL
- B6 — higher, > 10 µg/mL
- B7 — higher, > 10 µg/mL
- B8 — within 1.5-fold, 0.131 µg/mL
- B9 — higher, > 10 µg/mL

The binders below were run against SARS-CoV-2 Omicron XBB spike pseudovirus in the same assay as above.
Description: as §1

B1 and B2 cannot be ordered by “pseudovirus neutralization IC50” value: greater than 10 µg/mL for the first, greater than 10 µg/mL for the second.

B3 and B4 cannot be ordered by “pseudovirus neutralization IC50” value: greater than 10 µg/mL for the first, greater than 10 µg/mL for the second.

B5 and B6 cannot be ordered by “pseudovirus neutralization IC50” value: greater than 10 µg/mL for the first, greater than 10 µg/mL for the second.

B7 and B8 cannot be ordered by “pseudovirus neutralization IC50” value: greater than 10 µg/mL for the first, greater than 10 µg/mL for the second.

B9 and B10 cannot be ordered by “pseudovirus neutralization IC50” value: greater than 10 µg/mL for the first, greater than 10 µg/mL for the second.

What follows are binders tested against SARS-CoV-2 early D614G spike pseudovirus in the same assay as above.
Description: as §1

B1 and B2 cannot be ordered by “pseudovirus neutralization IC50” value: greater than 10 µg/mL for the first, greater than 10 µg/mL for the second.

B3 and B4 cannot be ordered by “pseudovirus neutralization IC50” value: greater than 10 µg/mL for the first, greater than 10 µg/mL for the second.

B5 and B6 cannot be ordered by “pseudovirus neutralization IC50” value: greater than 10 µg/mL for the first, greater than 10 µg/mL for the second.

B7 and B8 cannot be ordered by “pseudovirus neutralization IC50” value: greater than 10 µg/mL for the first, greater than 10 µg/mL for the second.

For B9, the “pseudovirus neutralization IC50” value was greater than 10 µg/mL.

From the supplement of paper PMC9931576
